Measured values from several laboratories, pooled; numbers as filed in NIAID ChemDB.

Common to all: growth or infection tests; agent: Mycobacterium tuberculosis

Percent inhibition refers to the dose given; in toxicity tests it is the harm to the cells. Rows are shuffled and stem from different studies. Blank or dashed fields: not listed here. MIC50, MIC90 and the like: level of inhibition, or share of isolates inhibited. MIC bound: limit read from a one-dose screen. ECn: concentration that inhibits the pathogen or its effect by n%.

structure	dose	read by	strain or isolate	changes	read-out	result
Cc1nc([N+](=O)[O-])c(Br)n1C	-	resazurin	H37Rv	-	MIC bound	>6.25 µg/mL
CCOC(=O)c1cn(CC)c2c(cc([N+](=O)[O-])c3cccnc32)c1=O	-	-	H37Rv	gyrA mutation S91P	MIC90	>50 µM
C=CC1=C(C)C2=NC1=CC1=NC(=C(CC)/C1=C\O)C=C1N=C3C(=C1C)C(=O)[C@H](C(=O)OC)C3=C1NC(=C2)[C@@H](C)[C@@H]1CCC(=O)O	6.25 µg/mL	resazurin	H37Rv	-	inhibition	11%
CCCCCCCCCCCCCCCCNC(CC(=O)OCC)[C@H]1O[C@@H]2OC(C)(C)O[C@@H]2[C@H]1OC	-	-	H37Rv	-	MIC	6.25 µg/mL
CCCCCCCCCCCNCCNCCc1ccc(O)cc1	-	-	-	-	MIC	25 µM
O=C1c2cc(Cl)nnc2Oc2ccccc2N1Cc1ccccc1	12.5 µg/mL	BACTEC	H37Rv	-	inhibition	35%
CCOC(=O)c1ccc2c(c1)nc(-c1ccc([N+](=O)[O-])cc1)n2CCN1CCCC1=O	-	resazurin / fluorescence	H37Rv	-	EC50	>100 µM
Fc1ccc(N=C2/C(=C/c3ccco3)CNC/C2=C\c2ccco2)cc1	-	agar / visual reading	H37Rv	-	MIC	3.125 µg/mL
CC(CNC[C@@H]1CC[C@H]2C[C@@H]1C2(C)C)NCCC(c1ccccc1)c1ccccc1	-	-	-	-	MIC	12.5 µM
O=C(NN1CCN(c2cc3c(cc2F)c(=O)c(C(=O)O)cn3C2CC2)CC1)c1cccc(B(O)O)c1	-	fluorescence	H37Rv	-	MIC90	>50 µM
CCCCNC(CC(=O)OCC)[C@H]1O[C@@H]2OC(C)(C)O[C@@H]2[C@H]1OC	-	-	H37Ra	-	MIC	>25 µg/mL
Cc1ccc2c(c1)N(CCC(C)C)C(=O)c1ccnnc1O2	-	BACTEC	H37Rv	-	EC50	>12.5 µg/mL
CCOC(=O)c1ccc2nc(-c3ccc(C(=O)O)cc3)[nH]c2c1	-	resazurin / fluorescence	H37Rv	-	EC50	>100 µM
Cc1cc2c(cc1C)[n+]([O-])c(-c1nc3ccccc3s1)c(N)[n+]2[O-]	-	-	H37Rv	-	MIC	12.5 µg/mL
COc1c(N2CCNC(C)C2)c(F)cc2c(=O)c(C(=O)O)cn(C3CC3)c12	-	-	102 strains	-	MIC	2 µg/mL
CC(C)CCNCc1ccccc1	-	-	H37Rv	-	MIC	250 µg/mL
CCOC(=O)CCNC(CC(=O)OCC)[C@H]1O[C@@H]2OC(C)(C)O[C@@H]2[C@H]1OCc1ccccc1	-	-	H37Ra	-	MIC	>25 µg/mL
CCOC(=O)c1ccc2c(c1)nc(-c1ccc(N(C)C)cc1)n2CCN1CCCOC1	-	resazurin / fluorescence	H37Rv	-	MIC	>100 µM
OC[C@H](O)COCn1ncc2c(SCc3ccccc3)ncnc21	12.5 µg/mL	BACTEC	H37Rv	-	inhibition	0%
CCCCCCCCCCCNCCNCC1CCCO1	-	-	-	-	MIC	50 µM
O=[N+]([O-])c1ccc(NN=C2/C(=C/c3ccco3)CNC/C2=C\c2ccco2)c([N+](=O)[O-])c1	-	agar / visual reading	H37Rv	-	MIC	0.39 µg/mL
CC(NCCN[C@@H](C)C1CCCCC1)C12CC3CC(CC(C3)C1)C2	-	-	-	-	MIC	50 µM
Cc1cc(C)nc(/N=C(\N)Nc2ccc(S(=O)(=O)NC(=O)Nc3ccccc3)cc2)n1	12.5 µg/mL	BACTEC	H37Rv	-	inhibition	8%
CCOC(=O)c1cn(C)c2c(cc([N+](=O)[O-])c3cccnc32)c1=O	-	-	H37Rv	gyrA mutation G88C	MIC90	>50 µM
CO[C@@H]1[C@H]2OC(C)(C)O[C@H]2O[C@@H]1C(N)CC(=O)O	-	-	H37Rv	-	MIC	50 µg/mL
CNCc1ccccc1	-	-	H37Rv	-	MIC	250 µg/mL
CN(c1ccc(F)cc1)N1CCN(c2cc3c(cc2F)c(=O)c(C(=O)O)cn3C2CC2)CC1	-	fluorescence	H37Rv	-	MIC90	>50 µM
COc1ncnc2c1cnn2Cc1cn(COC[C@@H](O)CO)nn1	-	BACTEC	H37Rv	-	EC50	>12.5 µg/mL
Cc1ccc2c(c1)N(CCC(C)C)C(=O)c1cc(Cl)nnc1O2	12.5 µg/mL	BACTEC	H37Rv	-	inhibition	75%
Nc1ccc2[se]nc3c2c1C(=O)c1ccccc1-3	12.5 µg/mL	BACTEC	H37Rv	-	inhibition	99%
CCOC(=O)c1ccc2nc(C3C(c4ccccc4)C(=O)C3c3ccc(OC)cc3)[nH]c2c1	-	resazurin / fluorescence	H37Rv	-	EC90	>100 µM
NNC(=O)c1ccncc1	-	-	20 strains	-	MIC50	0.025 µg/mL
CCOC(=O)CCCNC(CC(=O)OCC)[C@H]1O[C@@H]2OC(C)(C)O[C@@H]2[C@H]1OC	-	-	H37Rv	-	MIC	100 µg/mL
CC(=O)OCC1OC(n2nc([N+](=O)[O-])nc2Br)C(OC(C)=O)C1OC(C)=O	-	BACTEC	H37Rv	-	MIC bound	>12.5 µg/mL
CNc1ncnc2c1cnn2COC[C@@H](O)CO	12.5 µg/mL	BACTEC	H37Rv	-	inhibition	0%
CCOC(=O)c1ccc2nc(-c3ccc4c(c3)OCO4)[nH]c2c1	-	resazurin / fluorescence	H37Rv	-	MIC	>100 µM
Cc1c(N)nc(C(CC(N)=O)NCC(N)C(N)=O)nc1C(=O)NC(C(=O)NC(C)C(O)CC(=O)NC(C(=O)NC(OC1OC(C)C(N)C(O)C1O)C(O)c1nc(-c2nc(C(=O)NCCC[S+](C)C)cs2)cs1)C(C)O)C(OC1OC(CO)C(O)C(O)C1OC1OC(CO)C(O)C(OC(N)=O)C1O)c1cnc[nH]1.Cl.Cl.Cl.[Cl-]	-	-	CS-R	-	MIC	0.2 µg/mL
O=C(NN1CCN(c2cc3c(cc2F)c(=O)c(C(=O)O)cn3C2CC2)CC1)c1ccc(F)cc1	-	fluorescence	H37Rv	-	MIC90	>50 µM
CC(C)(CO)NCCNCc1ccccc1	-	-	-	-	MIC	50 µM
CCOC(=O)c1ccc2c(c1)nc(-c1cccc(-c3ccc(F)cc3)c1)n2CCN1CCCC1=O	-	resazurin / fluorescence	H37Rv	-	MIC	>100 µM
NC(=S)NNC(=S)S	-	BACTEC	H37Rv	-	MIC bound	≤12.5 µg/mL
O=C1c2cc(Cl)nnc2Oc2ccc(Cl)cc2N1CCCC1CCCCC1	-	BACTEC	H37Rv	-	EC50	<12.5 µg/mL
CN(NC(=O)C(=O)NCc1ccco1)C(=O)Nc1ccc(Cl)cc1	-	BACTEC	H37Rv	-	MIC bound	>12.5 µg/mL
COc1ccccc1/C=C1/SC(c2ccccc2OC)N(C(=O)NCCCN2c3ccccc3Sc3ccccc32)C1=O	50 µg/mL	agar	H37Rv	-	inhibition	65%
CCCCNCc1ccc(C)cc1	-	-	H37Rv	-	MIC	250 µg/mL
CCOC(=O)c1ccc2c(c1)nc(-c1ccc(Br)cc1)n2CCN1CCCC1=O	-	resazurin / fluorescence	H37Rv	-	MIC	>100 µM
C/C(=N\NC(=O)c1cccnc1)c1cccc(/C(C)=N/NC(=O)c2cccnc2)n1	-	-	PZA-R	-	MIC	>12.5 µg/mL
O=C(O)c1cn(C2CC2)c2cc(N3CCN(Nc4ccc(OC(F)(F)F)cc4)CC3)c(F)cc2c1=O	-	fluorescence	H37Rv	-	MIC90	7.35 µM
COc1cc(C=CC(=O)c2sc(NNC(C)=O)nc2C)ccc1O	-	resazurin	H37Rv	-	MIC bound	>6.25 µg/mL
CCOC(=O)c1ccc2c(c1)nc(-c1ccc(N3CCOCC3)cc1)n2CCN1CCCC1=O	-	resazurin / fluorescence	H37Rv	-	EC90	>100 µM
Cc1nc(-c2ccc([N+](=O)[O-])cc2)cn2c1nc1ccccc12	-	BACTEC	H37Rv	-	MIC bound	>12.5 µg/mL
Cc1ccc2c(c1)N(CCCC1CCCCC1)C(=O)c1cc(Cl)nnc1O2	-	BACTEC	H37Rv	-	EC50	>12.5 µg/mL
O=C1CSC(c2ccc([N+](=O)[O-])cc2)N1C(=O)NCCCN1c2ccccc2Sc2ccccc21	50 µg/mL	agar	H37Rv	-	inhibition	70%
CCC(C)(C)NCCNCC1(O)CCCCC1	-	-	-	-	MIC	50 µM
CC[C@@H](CO)NCCN[C@@H](CC)CO	-	agar / visual reading	H37Rv	-	MIC	3.125 µg/mL
CC1(C)[C@H]2CC[C@@H](CNCCN3CCc4c([nH]c5ccccc45)C3)[C@@H]1C2	-	-	-	-	MIC	50 µM
O=C1CSC(c2ccccc2[N+](=O)[O-])N1C(=O)NCCCN1c2ccccc2Sc2ccccc21	25 µg/mL	agar	H37Rv	-	inhibition	35%
CO[C@H]1/C=C/O[C@@]2(C)Oc3c(C)c(O)c4c(O)c(c(/C=N/N5CCN(C)CC5)c(O)c4c3C2=O)NC(=O)/C(C)=C\C=C\[C@H](C)[C@H](O)[C@@H](C)[C@@H](O)[C@@H](C)[C@H](OC(C)=O)[C@@H]1C	-	-	20 strains	-	MIC50	1 µg/mL
COc1ccc(/C(=C(\CC(=O)O)C(=O)OC(C)(C)C)c2cc(OC)c(OC)c(OC)c2)cc1OC	-	BACTEC	H37Rv	-	MIC bound	>12.5 µg/mL
COc1ccccc1CCNCCNC(c1ccccc1)c1ccccc1	-	-	-	-	MIC	12.5 µM
O=C1CN=C(c2ccc[nH]2)c2cc(Cl)ccc2N1	6.25 µg/mL	BACTEC	H37Rv	-	inhibition	0%
CCCCCCCCN1C(=O)c2cc(Cl)nnc2Oc2ccc3ccccc3c21	-	BACTEC	H37Rv	-	EC50	>12.5 µg/mL
COc1cc([C@H]2c3cc(O)c(OC)cc3C[C@@H]3C(=O)OC[C@H]23)ccc1O	12.5 µg/mL	BACTEC	H37Rv	-	inhibition	6%
COc1ccccc1/C=N/C(=O)NCCCN1c2ccccc2Sc2ccccc21	50 µg/mL	agar	H37Rv	-	inhibition	43%
Cc1ccc(S(=O)(=O)N2CCSCCN(S(=O)(=O)c3ccc(C)cc3)CCN(S(=O)(=O)c3ccc(C)cc3)CC2)cc1	-	resazurin	H37Rv	-	MIC bound	>6.25 µg/mL
CCCC[C@@H](O)CN1CCC(COc2ccc(C(=O)c3ccc(Cl)cc3)c(Cl)c2)CC1	-	resazurin	-	-	MIC	6.25 µg/mL
O=C(/N=C/c1ccccc1Br)NCCCN1c2ccccc2Sc2ccccc21	25 µg/mL	agar	H37Rv	-	inhibition	25%
C/C(=N\NC(=O)c1cccnc1)[C@H]1CC[C@H]2[C@@H]3CC[C@H]4C[C@@H](O)CC[C@]4(C)[C@H]3CC[C@]12C	12.5 µg/mL	BACTEC	H37Rv	-	inhibition	22%
O=C(NN1CCN(c2cc3c(cc2F)c(=O)c(C(=O)O)cn3C2CC2)CC1)c1ccc(Br)cc1	-	fluorescence	H37Rv	-	MIC90	>50 µM
O=C(NCCCN1c2ccccc2Sc2ccccc21)N1C(=O)/C(=C\c2cccc(O)c2)SC1c1cccc(O)c1	50 µg/mL	agar	H37Rv	-	inhibition	70%
CC[C@@H](CO)NCCN[C@@H](CC)CO	-	-	20 strains	-	MIC90	0.5 µg/mL
O=C1CSC(c2ccccc2Br)N1C(=O)NCCCN1c2ccccc2Sc2ccccc21	50 µg/mL	agar	H37Rv	-	inhibition	75%
CC[C@H]1OC(=O)[C@H](C)[C@@H](O[C@H]2C[C@@](C)(OC)[C@@H](O)[C@H](C)O2)[C@H](C)[C@@H](O[C@@H]2O[C@H](C)C[C@H](N(C)C)[C@H]2O)[C@](C)(O)C[C@@H](C)CN(C)[C@H](C)[C@@H](O)[C@]1(C)O	-	-	20 strains	-	MIC90	>128 µg/mL
CCCCCCCCCCCCNC(CC(=O)OCC)[C@H]1O[C@@H]2OC(C)(C)O[C@@H]2[C@H]1OC	-	-	H37Rv	-	MIC	50 µg/mL
Fc1ccc(N=C2/C(=C/c3ccco3)CNC/C2=C\c2ccco2)c(F)c1	-	agar / visual reading	H37Rv	-	MIC	0.78 µg/mL
CCCCCCCCN1C(=O)c2ccnnc2Oc2cc(C)ccc21	-	BACTEC	H37Rv	-	EC50	>12.5 µg/mL
CCOCCOCCOCc1nc(C#N)c(N)o1	6.25 µg/mL	resazurin	H37Rv	-	inhibition	-11%
CCCCNCc1ccc(Br)cc1	-	-	H37Rv	-	MIC	250 µg/mL
CC[N+](CC)=c1cc2oc3cc(N(C)C)ccc3nc-2cc1C.[Cl-]	-	BACTEC	H37Rv	-	MIC bound	≤12.5 µg/mL
CCSc1ncnc2c1cnn2COC[C@@H](O)CO	12.5 µg/mL	BACTEC	H37Rv	-	inhibition	0%
C=CC(C)(C)C1=CC(=O)C(OC)=CC1=O	-	BACTEC	H37Rv	-	MIC bound	≤128 µg/mL
CCCCCCCCCCCCCCCCNC(CC(=O)OCC)[C@H]1O[C@@H]2OC(C)(C)O[C@@H]2[C@H]1OCc1ccccc1	-	-	H37Rv	-	MIC	>25 µg/mL